PubChem BioAssay AID1259414, Drosophila RNAi Screening Center – 2018
The deposit covers about 24,000 reagents; this is a random part of those with a known target gene and a result. In the full data, about 1,210 (5%) are marked active. 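Inactive calls also include excluded dsRNAs with several or no targets, genes unexpressed in JW18, and well A1, regardless of score.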 Names joined by + are all predicted targets of the reagent.

Screen: 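Fly genes that alter Wolbachia amount inside host cells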 (primary screen)
Cells: Drosophila JW18 cells infected with Wolbachia
Knock-down reagent: long dsRNA against Drosophila genes, 0.25 µg dsRNA per well of a 384-well plate
Time to read-out: 5 days
Challenge: cells persistently infected with Wolbachia before knock-down; no added drug
Detection: 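Imaged fluorescence in situ signal for Wolbachia 23S rRNA per DAPI-counted host cell, given as a robust z-score within each plate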
Direction: Wolbachia per cell robust z: higher = more Wolbachia per host cell than the plate typical
Call rule: 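Hit when robust z is 1.5 or more, or -1.5 or less, in at least two of three replicates; excludes dsRNAs with several or no targets, genes not expressed in JW18 and well A1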

gene | dsRNA | Wolbachia per cell robust z, rep 1 | Wolbachia per cell robust z, rep 2 | Wolbachia per cell robust z, rep 3 | activity call
CG7530 | DRSC16255 | 0.117 | 0.944 | 0.392 | inactive
CG7530 | DRSC25476 | 0.186 | 0.406 | 0.432 | inactive
CG32985 | DRSC02634 | 0.965 | 0.489 | -0.156 | inactive
CG32985 | DRSC24453 | 0.196 | -7.7 | 0.0496 | inactive
CycG | DRSC14324 | 1.14 | -0.653 | -3.39 | inactive
CycG | DRSC23345 | -0.186 | -4.87 | -0.171 | inactive
bab2 | DRSC08150 | 0.868 | 0.712 | 0.494 | inactive
bab2 | DRSC26326 | -1.4 | 0.366 | -0.305 | inactive
CG5968 | DRSC02916 | -0.219 | -2.98 | -0.364 | inactive
Nep3 | DRSC20685 | 0.452 | -0.241 | 0.452 | inactive
Nep3 | DRSC29285 | -5.52 | 1.01 | 0.431 | inactive
Fpgs1 | DRSC19857 | 0.532 | 0.629 | 0.119 | inactive
Fpgs1 | DRSC25579 | 1.34 | 0.427 | 0.897 | inactive
CG11560 | DRSC09843 | 0.157 | -0.168 | -1.52 | inactive
CG11560 | DRSC27017 | -0.0511 | 0.0239 | 0.0857 | inactive
tio | DRSC03739 | 0.812 | 0.431 | -1.69 | inactive
tio | DRSC41362 | 0.713 | 0.895 | 0.282 | inactive
mtTFB2 | DRSC15519 | 0.173 | 0.476 | -0.469 | inactive
825-Oak + CG32213 + CG32214 + 2 more | DRSC22210 | 0.972 | -1.04 | -0.617 | inactive
Sodh1 | DRSC12605 | 0.731 | -0.89 | 1.43 | inactive
Sodh1 | DRSC26280 | -0.342 | 0.856 | 0.353 | inactive
Elp2 | DRSC06095 | -0.381 | -0.164 | -7.25 | inactive
Whamy | DRSC14574 | -0.493 | -1.47 | -0.34 | inactive
Whamy | DRSC28119 | -0.583 | 0.657 | 0.923 | inactive
CG9313 | DRSC04540 | 0.77 | -0.158 | 0.639 | inactive
CG9313 | DRSC27041 | 0.219 | 0.628 | -10.2 | inactive
osk | DRSC17023 | -2.74 | 0.463 | -5.75 | active
Sk1 | DRSC19774 | 0.404 | 0.663 | -4.97 | inactive

Individual results from above.
Entry of Elp2 [DRSC06095] under “activity call”: inactive
Under “Wolbachia per cell robust z, rep 2”, 825-Oak + CG32213 + CG32214 + 2 more [DRSC22210] is entered as -1.04
